Tests used:
Format in all cases: functional
[1] = test system: Burkholderia pseudomallei; assay: Antibacterial activity against Burkholderia pseudomallei BPS2020IRBA001 under 1 uM FeCl3 medium by CLSI protocol based microdilution method
[2] = test system: Burkholderia pseudomallei; assay: Antibacterial activity against Burkholderia pseudomallei K96243 under muller hinton medium by CLSI protocol based microdilution method
[3] = test system: Burkholderia pseudomallei; assay: Antibacterial activity against Burkholderia pseudomallei BPS2020IRBA003 under 1 uM FeCl3 medium by CLSI protocol based microdilution method
[4] = test system: Burkholderia pseudomallei; assay: Antibacterial activity against Burkholderia pseudomallei BPS2020IRBA005 under muller hinton medium by CLSI protocol based microdilution method

Measured: MIC

CC(C)(O/N=C(\C(=O)N[C@@H]1C(=O)N2C(C(=O)[O-])=C(C[n+]3ccccc3)CS[C@H]12)c1csc(N)n1)C(=O)O [CEFTAZIDIME]
4 µg/mL: [1] | [2] | [3] | [4]

Reference: ChEMBL document CHEMBL5335767, “Synthesis and study of new siderophore analog-ciprofloxacin conjugates with antibiotic activities against Pseudomonas aeruginosa and Burkholderia spp” (Eur J Med Chem, 2023)
